Laboratory results from paper PMC8881069, “Thio- and selenosemicarbazones as antiprotozoal agents against Trypanosoma cruzi and Trichomonas vaginalis” (Journal of Enzyme Inhibition and Medicinal Chemistry, 2022).

What follows are compounds tested on Trypanosoma cruzi Y (DTU TcII) epimastigotes (assay: Y strain epimastigote susceptibility assay (resazurin)). Settings: SI = CC50 J774/IC50 Y epimastigotes.
Assay type: cell-based

Row | SMILES | SI Y epi
1 | O=C(Cn1ccnc1[N+](=O)[O-])NCc1ccccc1 [Benznidazole, benznidazole, reference compound] | >11.26
2 | COc1ccc(NC(=S)NN)cc1 [Compound 23] | >4.27
3 | NNC(=S)Nc1ccc(F)cc1 [Compound 24] | >2.63
4 | NNC(=S)Nc1cccc2ccccc12 [Compound 31] | >7.61
5 | COc1ccc(/C=N/NC(=S)Nc2ccccc2)cc1 [Compound 37] | >3.01
6 | COc1ccc(/C=N/NC(=S)Nc2ccc(OC)cc2)cc1 [Compound 43] | >4.61

Each compound was assayed on Trichomonas vaginalis (assay: Trichomonacidal in vitro assay (resazurin)). Settings: SI = CC50 Vero cells/IC50 T. vaginalis.
Assay type: cell-based

Row | SMILES | SI (T. vaginalis)
7 | NNC(=S)Nc1ccc(Cl)cc1 [Compound 25] | >6.10
8 | NNC(=S)Nc1cccc([N+](=O)[O-])c1 [Compound 29] | > 15.7 and >15.67
9 | NNC(=S)Nc1cccc2ccccc12 [Compound 31] | >9.93
10 | COc1ccc(/C=N/NC(=S)Nc2ccc(Cl)cc2)cc1 [Compound 46] | >9.30
11 | Oc1ccc(/C=N/NC(=S)Nc2ccc(Br)cc2)cc1O [Compound 49] | > 15.7 and >18.30
12 | Oc1ccc(/C=N/NC(=S)Nc2ccc(I)cc2)cc1 [Compound 50] | >7.10
13 | COc1ccc(/C=N/NC(=S)Nc2ccc(I)cc2)cc1 [Compound 51] | > 15.7 and >20.20
14 | Oc1ccc(/C=N/NC(=S)Nc2ccc(I)cc2)cc1O [Compound 52] | >12.05
15 | COc1ccc(/C=N/NC(=S)Nc2ccccc2[N+](=O)[O-])cc1 [Compound 54] | >8.77
16 | O=[N+]([O-])c1cccc(NC(=S)N/N=C/c2ccc(O)cc2)c1 [Compound 56] | 7.00
17 | O=[N+]([O-])c1ccc(NC(=S)N/N=C/c2ccc(O)cc2)cc1 [Compound 59] | 7.07
18 | Oc1ccc(/C=N/NC(=S)Nc2cccc3ccccc23)cc1 [Compound 63] | > 15.7 and 18.45
19 | COc1ccc(/C=N/NC(=S)Nc2cccc3ccccc23)cc1 [Compound 64] | >9.85
20 | Cc1ncc([N+](=O)[O-])n1CCO [Metronidazole, metronidazole, reference compound] | >111

“And” between values parts separate entries of the source, which are not always exact repeats. Equal entries are not always repeated.
